{"source": "patent US9234885B2", "about": "(priority 2011, dated 2016)", "test_system": "rVSV-GP-EboV", "test": "rVSV-GP-EboV infectivity in Vero cells", "type": "cell-based, Ebola virus", "settings": "post-infection, time-of-escape experiment"}
{"smiles": "CCN(CC)CCO[C@H]1CC[C@@]2(C)C(=CC[C@@H]3[C@@H]2CC[C@]2(C)C(=O)CC[C@@H]32)C1", "note": "[U18666A, 3-β-[2-(diethylamino)ethoxy]androst-5-en-17-one]", "values": [{"measurement": "time by which sensitivity of viral infection to the drug is lost", "value": 2, "unit": "h"}]}
